Measured values from several laboratories, pooled; numbers as filed in NIAID ChemDB.

Common to all: tests in culture; species: Mycobacterium tuberculosis

MIC bound comes from a single tested concentration. An empty or dashed field is not shown. A number after MIC or MFC names an inhibition level or a share of isolates. Percent inhibition refers to the dose given; in toxicity tests it is the harm to the cells. ECn is the concentration giving n% inhibition of infection, replication or growth. Rows are shuffled and stem from different studies. a–b is a range or a potency band.

SMILES | dose | measure | strain or isolate | setting | read by | cell line | value
CC(C)(C)OC(=O)N1CCC2(CC1)CC(=O)c1ccc(OCC(O)Cn3cc(-c4ccccc4)nn3)cc1O2 |  | MIC | H37Rv |  | agar |  | 12.5 µg/mL
CCn1cc(C(=O)O)c(=O)c2cc(F)c(N3CCNCC3)cc21 |  | MIC | 10 strains |  |  |  | ≤8 µg/mL
OCCN1CCN(CC/C=C2/c3ccccc3Sc3ccc(Cl)cc32)CC1 |  | MIC | ST. 5 |  |  |  | 6.25 µg/mL
O=C(Oc1cc(Cl)ccc1C(=O)Nc1ccc(C(F)(F)F)cc1)c1ccccc1 |  | MIC100 | H37Rv | 14 d | broth dilution |  | 0.5 µM
C=C[C@]1(C)C=C2CC[C@@H]3[C@](C)(CCC[C@@]3(C)C(=O)O)[C@H]2CC1 |  | MIC |  |  |  |  | 15 µg/mL
Clc1ccc(N2CCN(c3ccccc3Cl)CC2)nn1 |  | MIC | 18b |  | resazurin |  | 16 µg/mL
COC(=O)c1c(NC(=O)c2c(F)c(F)c(F)c(F)c2F)sc2c1CCC2 |  | MIC |  |  |  |  | 2.1 µM
COc1ccc(-c2cn(CC(O)COc3ccc4c(c3)OC3(CCCCC3)CC4=O)nn2)cc1 |  | MIC | H37Rv |  | agar |  | 12.5 µg/mL
O=C(c1ccncc1)N1N=C(c2ccccc2)CC1(O)C(F)(F)F |  | MIC | H37Rv |  |  |  | 18.66 µM
CC1CC(C)CC(C)C(O)/C(C#N)=C\C=C/CC(C2CCCC2C(=O)O)OC(=O)CC(O)C(C)C1 |  | MIC |  |  | resazurin / visual reading |  | 4.17 µg/mL
C[C@@H]1CN(c2c(F)c(N)c3c(=O)c(C(=O)O)cn(C4CC4)c3c2F)C[C@H](C)N1 |  | MIC50 |  |  |  |  | 0.25 µg/mL
Fc1ccc(ON2N=C(c3ccc(Cl)cc3)C(n3ccnc3)C2c2ccc(Cl)cc2)cc1 |  | MIC | H37Rv |  |  |  | 4 µg/mL
CC(CC[Si](C)(C)C)NC(=O)c1cc2c(Cl)cc(Cl)cc2[nH]1 |  | MIC87 | H37Rv |  | resazurin |  | 1 µg/mL
Cc1ccccc1NC(=O)/C(=N\NC(=O)CC#N)C1C(=O)N(c2ccccc2)N=C1N | 6.25 µg/mL | inhibition | H37Rv |  | resazurin |  | 19%
C=[N+]([O-])c1ccc(NC(=O)C2(c3cccs3)CCOCC2)cc1 |  | EC50 | CDC1551 |  | turbidity |  | 32 µM
COc1cc(-c2nn3c(C(F)(F)F)nnc3s2)cc(OC)c1OC |  | MIC | 18b |  | resazurin |  | 16 µg/mL
CCCCOC(=O)c1ccc(NC(=O)C2(c3cccs3)CCOCC2)cc1 |  | EC50 | CDC1551 |  | turbidity |  | 121 µM
Cc1cc(C)c2cc(C(=O)N[C@H]3CC[Si](C)(C)C3)[nH]c2c1 |  | MIC90 | H37Rv |  | resazurin |  | 0.052 µg/mL
O=C(N=Nc1c(Cl)c(O)c2ccccc2c1O)C(F)(F)F |  | MIC bound | H37Rv |  | BACTEC |  | ≤12.5 µg/mL
CON=C1CCN(c2nc(=O)c3cc(C(F)(F)F)cc([N+](=O)[O-])c3s2)CC1 |  | MIC90 | 16892 clinical isolate |  | resazurin |  | 0.016 µg/mL
Nc1cc2c(cc1-n1cccc1)oc1ccccc12 | 12.5 µg/mL | inhibition | H37Rv |  | BACTEC |  | -11%
CC1COc2c(N3CCN(C)CC3)c(F)cc3c(=O)c(C(=O)O)cn1c23 |  | MIC90 |  |  |  |  | 0.5–2.4 µg/mL
c1ccc(-c2cc[n+]3c4c2ccc2c(-c5ccccc5)cc[n+](c24)CC3)cc1 | 12.5 µg/mL | inhibition | H37Rv |  | BACTEC |  | -34%
COC(=O)c1c(NC(=O)c2c(F)c(F)c(F)c(F)c2F)sc2c1CCCCC2 |  | MIC |  |  |  |  | 1 µM
O=C1C(N=Nc2ccccc2)Sc2nc3ccccc3n21 |  | MIC bound | H37Rv |  | BACTEC |  | >12.8 µg/mL
O=C(Nc1ccc(C(F)(F)F)cc1)c1cc(Br)ccc1O |  | MIC100 | H37Rv | 14 d | broth dilution |  | 1 µM
Cc1ccc(CNC(=O)c2c(-c3ccc(Br)s3)noc2C)o1 |  | MIC | Clinical isolate |  | resazurin |  | 8 µg/mL
CCOC(=O)c1cc2c(Cl)c(Cl)c(Cl)c(Cl)n2n1 |  | MIC bound | H37Rv |  | resazurin |  | >6.25 µg/mL
Nc1ccc(S(=O)(=O)Nc2ccnn2-c2ccccc2)cc1 |  | MIC | Strain 1 (MDR) |  |  |  | 0.5 µg/mL
O=C(Nc1cccc(F)c1)C1(c2cccs2)CCOCC1 |  | EC50 | CDC1551 |  | turbidity |  | 200 µM
CN(CC1CCCCC1)C1CCN(c2nc(=O)c3cc(C(F)(F)F)cc([N+](=O)[O-])c3s2)CC1 |  | MIC90 | 16802 clinical isolate |  | resazurin |  | 0.016 µg/mL
COc1cccc2c(NC(=S)Nc3cccc([N+](=O)[O-])c3)ccnc12 |  | MIC | Strain 2 (MDR) |  |  |  | 2 µg/mL
C[C@H]1CCC[C@]2(C)C[C@H]3OC(=O)C(O)(CO)[C@H]3C=C12 |  | MIC | H37Rv |  |  |  | >128 µg/mL
CNC(=O)N1CCC(n2c(C)nc(C(=O)NC3CC3)c2C)CC1 |  | MIC | 18b |  | resazurin |  | 8 µg/mL
COC(=O)c1c(NC(=O)c2ccc(C)cc2)sc2c1CCCCC2 |  | MIC |  |  |  |  | >20.2 µM
CC1(C)N=C(c2ccccc2)C(=O)N1CC(=O)Nc1ccc2c(c1)OCO2 |  | MIC | Clinical isolate |  | resazurin |  | 16 µg/mL
COC(=O)CC(NC(=O)OCc1ccccc1)C(=O)NC(CC(=O)OC)C(=O)NC(CC(=O)OC)C(=O)NC(CC(=O)OC)C(=O)NC(CC(=O)OC)C(=O)NC(CC(=O)OC)C(=O)NN.Cl | 12.5 µg/mL | inhibition | H37Rv |  | BACTEC |  | 17%
CC[C@H]1OC(=O)[C@H](C)[C@@H](O[C@H]2C[C@@](C)(OC)[C@@H](O)[C@H](C)O2)[C@H](C)[C@@H](O[C@@H]2O[C@H](C)C[C@H](N(C)C)[C@H]2O)[C@](C)(OC)C[C@@H](C)C(=O)[C@H](C)[C@@H](O)[C@]1(C)O |  | MIC | ATCC 35828 |  |  |  | >8 µg/mL
CO[C@H]1/C=C/O[C@@]2(C)Oc3c(C)c(O)c4c(O)c(c(/C=N/N5CCN(C6CCCC6)CC5)c(O)c4c3C2=O)NC(=O)/C(C)=C\C=C\[C@H](C)[C@H](O)[C@@H](C)[C@@H](O)[C@@H](C)[C@H](OC(C)=O)[C@@H]1C |  | MIC | H37RV ATCC9360 |  |  |  | 0.05 µg/mL
CCC1CN(c2c(F)cc3c(=O)c(C(=O)O)cn(C4CC4)c3c2OC)CCN1 |  | MIC | Isolate TN7804 |  |  |  | 0.1 µg/mL
O=C(Nc1ccccc1)c1ccccc1O |  | MIC100 | H37Rv | 14 d | broth dilution |  | 62.5 µM
CC(O)CN1CCN(CC(C)O)C(C)C1 |  | MIC | H37Rv |  | BACTEC |  | ≥12.8 µg/mL
CO[C@H]1/C=C/O[C@@]2(C)Oc3c(C)c(=O)c4c(O)c(c5oc6cc(N7CCCC7)ccc6nc5c4c3C2=O)NC(=O)/C(C)=C\C=C\[C@H](C)[C@H](O)[C@@H](C)[C@@H](O)[C@@H](C)[C@H](OC(C)=O)[C@@H]1C |  | MIC | H37Rv |  |  |  | 0.035 µg/mL
CCN(CCNc1ccc(C)c2sc3cc(Cl)ccc3c(=O)c12)CC(C)O | 12.5 µg/mL | inhibition | H37Rv |  | BACTEC |  | 86%
C=C1C(=O)O[C@@H]2C[C@@]3(C)CCC(=O)C(C)=C3C[C@H]12 |  | MIC | H37Rv |  |  |  | 128 µg/mL
CN(C)c1ccc(CNC23CC4CC(CC(C4)C2)C3)cc1 |  | MIC |  |  |  |  | 10 µM
CO[C@H]1/C=C/O[C@@]2(C)Oc3c(C)c(=O)c4c(O)c(c5oc6cc(N7CCCCC7)ccc6nc5c4c3C2=O)NC(=O)/C(C)=C\C=C\[C@H](C)[C@H](O)[C@@H](C)[C@@H](O)[C@@H](C)[C@H](OC(C)=O)[C@@H]1C |  | MIC | H37Rv |  |  |  | 0.07 µg/mL
Nc1nn2c(C(Br)Br)cc(C(Br)Br)nc2c1[N+](=O)[O-] |  | MIC bound | H37Rv |  | resazurin |  | >6.25 µg/mL
Cc1ccc(C2=NN(C(=O)c3ccncc3)C(O)(C(F)(F)F)C2)cc1 |  | MIC | RGH104 |  |  |  | 4.47 µM
COc1ccc2nc(-c3ccccc3)cc(Nc3cccc(O)c3)c2c1 |  | MIC | Strain 1 (MDR) |  |  |  | >1 µg/mL
CC1=NN(C(=O)c2ccncc2)C(O)(C(F)(F)F)C1 |  | MIC | RGH101 |  |  |  | 22.89 µM
Nc1cc(S(=O)(=O)O)c(O)c2c1C(=O)c1c(O)c(S(=O)(=O)O)cc(N)c1C2=O | 12.5 µg/mL | inhibition | H37Rv |  | BACTEC |  | 6%
O=C(Oc1cc(Cl)ccc1C(=O)Nc1cccc(C(F)(F)F)c1)c1cnccn1 |  | MIC100 | H37Rv | 14 d | broth dilution |  | 1 µM
NC(=O)c1csc([C@@H]2O[C@@H]3COP(=O)(O)O[C@H]3[C@H]2O)n1 |  | MIC bound | H37Rv |  | BACTEC |  | >12.5 µg/mL
Cc1ccc(S(=O)(=O)[C@H]2CS(=O)(=O)C[C@@H]2NCCc2ccccc2)cc1 |  | MIC | Clinical isolate |  | resazurin |  | >16 µg/mL
CN(C)CC/C=C1\c2ccccc2Sc2ccc(Cl)cc21 |  | MIC | ST. 5 |  |  |  | 6.25 µg/mL
CCN(CC)CCn1nc2n(c(=O)c1=O)CC(=O)N(C)c1ccc(Cl)cc1-2 | 12.5 µg/mL | inhibition | H37Rv |  | BACTEC |  | -13%
CO[C@H]1/C=C/O[C@@]2(C)Oc3c(C)c(O)c4c(O)c(c(/C=N/N5CCN(C)CC5)c(O)c4c3C2=O)NC(=O)/C(C)=C\C=C\[C@H](C)[C@H](O)[C@@H](C)[C@@H](O)[C@@H](C)[C@H](OC(C)=O)[C@@H]1C |  | MIC100 | H37Rv |  | resazurin |  | 0.05 µg/mL
Cc1cc(C)c(NC(=O)C2(c3cccs3)CCOCC2)c(C)c1 |  | EC50 | CDC1551 |  | turbidity |  | 200 µM
NC(=S)NNC(=O)c1ccncc1 |  | MIC | Strain 2 (MDR) |  |  |  | 1 µg/mL
C=C1C(=O)OCC1(C(=O)OCC)C(=O)OCC |  | MIC bound | H37Rv |  | BACTEC |  | >12.5 µg/mL
O=c1nc(N2CCC(=NOCc3ccccc3)CC2)sc2c([N+](=O)[O-])cc(C(F)(F)F)cc12 |  | MIC90 | 16892 clinical isolate |  | resazurin |  | 0.016 µg/mL
C[C@H]1NCc2cc(-c3ccc4c(=O)c(C(=O)O)cn(C5CC5)c4c3OC(F)F)ccc21 |  | MIC50 | 10 strains |  |  |  | 2 µg/mL
O=C(NNc1cc(-c2ccccc2)nc2ccccc12)c1ccncc1 |  | MIC | Strain 2 (MDR) |  |  |  | 1 µg/mL
CC1(C)CC(=O)C2=C(C1)C1=Nc3ccccc3C1=C2 |  | MIC | 18b |  | resazurin |  | 8 µg/mL
COc1ccc2c(c1)N(C[C@H](C)CN(C)C)c1ccccc1S2 |  | MIC | ST. 5 |  |  |  | 25 µg/mL
NC(=S)NNC(=S)S |  | MIC | RMP-R |  |  |  | >12.5 µg/mL
Cc1ccc(-c2cn(CC(O)COc3ccc4c(c3)OC3(CCN(C(=O)OC(C)(C)C)CC3)CC4=O)nn2)cc1 |  | MIC | H37Rv |  | agar |  | 6.25 µg/mL
CCCCN1CCN(c2ccc3nc(-c4ccc5nc(-c6ccc(OCC)cc6)[nH]c5c4)[nH]c3c2)CC1 |  | MIC90 | H37Rv |  | broth dilution / turbidity |  | 9.8 µg/mL
O=c1nc(N2CC(=NOCc3ccccc3)C2)sc2c([N+](=O)[O-])cc(C(F)(F)F)cc12 |  | MIC90 | H37Rv |  | resazurin |  | <0.016 µg/mL
CC(=O)O.CC(=O)O.COC(=O)C1C(O)C(C)C(O)C(C)(O)/C=C\C=C(/C)C(=O)Nc2c(C)c(C)c3c(c2O)C(=O)C(C)=C2OCOC(=C23)/C(C)=C/C(C)(O)C(O)C(C)C1OC(C)=O |  | MIC | H37Rv |  | BACTEC |  | ≥12.5 µg/mL
COC(=O)c1nnn(CC(=O)Nc2ccc(C)c(F)c2)c1C(=O)OC |  | MIC | 18b |  | resazurin |  | 16 µg/mL
O=[n+]1c2ccc(Cl)cc2n([O-])c2ccc(Cl)cc21 |  | MIC | KM-R |  |  |  | 12.5 µg/mL
CON=C1CN(c2nc(=O)c3cc(C(F)(F)F)cc([N+](=O)[O-])c3s2)C1 |  | MIC90 | H37Rv |  | resazurin |  | 0.03 µg/mL
Cl.FC(F)(F)c1ccc2c(c1)N(CCCNCCN1CCOCC1)c1ccccc1S2 |  | MIC | H37Rv |  | BACTEC | VERO | 12.5 µg/mL
OCCN1CCN(CCC=C2c3ccccc3Sc3ccc(Cl)cc32)CC1 |  | MIC | ST. 5 |  |  |  | 6.25 µg/mL
O=C(N[C@@H](Cc1ccccc1)C(=O)O)c1ccncc1 |  | MIC bound | H37Rv |  | resazurin |  | >6.25 µg/mL
CCON=C1CN(c2nc(=O)c3cc(C(F)(F)F)cc([N+](=O)[O-])c3s2)C1 |  | MIC90 | 16892 clinical isolate |  | resazurin |  | 0.016 µg/mL
O=[N+]([O-])c1ccccc1S(=O)(=O)N1CCN(S(=O)(=O)c2ccccc2[N+](=O)[O-])C1 | 6.25 µg/mL | inhibition | H37Rv |  | resazurin |  | -13%
C=C1C(=O)O[C@@H]2C[C@@]3(C)CCCC(=C)[C@@H]3C[C@H]12 |  | MIC | H37Rv |  |  |  | 32 µg/mL